Anti-infective test results gathered from many reports (values: NIAID ChemDB through PubChem).

Common to all: growth or infection tests; organism: HIV-1; measure: EC50

ECn: concentration that inhibits the pathogen or its effect by n%. An empty or dashed field is not shown. Neighbouring rows are from separate reports. Two numbers with a dash give a range or band.

compound	changes	cells	strain	read by	value
Cc1ncc(-c2ccc(OCCOC3CCCC3)cn2)c(N2CCC(C)(C)CC2)c1[C@H](OC(C)(C)C)C(=O)O		MT-2	NL4-3	luminescence	0.0007 µM
Cc1cc(S(N)(=O)=O)ccc1NC(=O)COc1ccc(Cl)cc1C(=O)c1cc(Cl)cc(Cl)c1		MT-4	IIIB	cytopathic effect / propidium iodide	<0.01 µM
N#CC1=CC2Nc3ccccc3C2N(c2ccc([N+](=O)[O-])cc2)C1=O		HeLa	2AG	GFP / fluorescence	1.01 µM
Cc1cc(F)ccc1OCCNc1ccc(-c2cnc(C)c([C@H](OC(C)(C)C)C(=O)O)c2N2CCC(C)(C)CC2)nc1		MT-2	NL4-3	luminescence	0.0016 µM
COCCOc1cc(Cl)ccc1CNC[C@H](O)[C@@]12CC[C@]3(C)[C@H](CC[C@@H]4[C@@]5(C)CC[C@H](OC(=O)[C@H]6C[C@@H](C(=O)O)C6(C)C)C(C)(C)[C@@H]5CC[C@]43C)C1=C(C(C)C)C(=O)C2		MT-2	92HT599	p24 / ELISA	<1 µM
Cc1ncc(-c2cnc(OC3Cc4ccccc4C3)c(F)c2)c(N2CCC(C)(C)CC2)c1[C@H](OC(C)(C)C)C(=O)O		MT-2	NL4-3	luminescence	0.0061 µM
CCC(=O)c1ccc(F)c([C@@H]2C[C@@H]2NC(=O)Nc2ccc(C#N)cn2)c1O	NNRTI-resistant (RT K103N/G190A)	TZM-bl	LAI	β-galactosidase / luminescence	0.00107 µM
Cc1ncc(-c2ccc(OCC3CC=CC3)cn2)c(N2CCC(C)(C)CC2)c1[C@H](OC(C)(C)C)C(=O)O		MT-2	NL4-3	luminescence	0.0009 µM
CC(C)C1=C2[C@H]3CC[C@@H]4[C@@]5(C)CC[C@H](OC(=O)[C@H]6C[C@@H](C(=O)O)C6(C)C)C(C)(C)[C@@H]5CC[C@@]4(C)[C@]3(C)CC[C@@]2([C@@H](O)CNCC(C)(C)NC(=O)CN2CCS(=O)(=O)CC2)CC1=O		MT-2	92HT599	p24 / ELISA	<1 µM
O=C(COc1ccc(Cl)cc1C(=O)c1ccco1)Nc1ccc2cn[nH]c2c1		HeLa + HELA CD4+	WTRVA	β-galactosidase	<0.01 µM
CC(C)C1=C2[C@H]3CC[C@@H]4[C@@]5(C)CC[C@H](OC(=O)[C@H]6C[C@@H](C(=O)O)C6(C)C)C(C)(C)[C@@H]5CC[C@@]4(C)[C@]3(C)CC[C@@]2(CCNCC2(NC(=O)c3ccc(Cl)cc3)COC2)CC1=O		MT-2	92HT599	p24 / ELISA	<1 µM
Cc1nc2ccccc2c(-c2cc(F)c3c(c2C)CCCO3)c1[C@H](OC(C)(C)C)C(=O)O	A128T	MT-4	NL4-3	luminescence	0.038 µM
Cc1cc(S(N)(=O)=O)ccc1NC(=O)COc1ccc(Cl)cc1C(=O)c1cccc(C#N)c1	RT-L100I	HeLa + HELA CD4+	HXB2	β-galactosidase	<0.01 µM
CC(C)C1=C2[C@H]3CC[C@@H]4[C@@]5(C)CC[C@H](OC(=O)[C@H]6C[C@@H](C(=O)O)C6(C)C)C(C)(C)[C@@H]5CC[C@@]4(C)[C@]3(C)CC[C@@]2([C@@H](O)CNC(=O)c2ccc(OCCN3CCOCC3)cc2)CC1=O		MT-2	92HT599	p24 / ELISA	<1 µM
Cc1cc(C#N)cc(C(=O)c2cc(Cl)ccc2OCC(=O)Nc2ccc(S(N)(=O)=O)nc2C)c1	RT-G190A	HeLa + HELA CD4+	HXB2	β-galactosidase	<0.01 µM
CCC[C@@]1(CCc2ccccc2)CC(O)=C([C@H](CC)c2cccc(NS(=O)(=O)c3ccc(C(F)(F)F)cn3)c2)C(=O)O1	L10F I47I/V	MT-4	T20760	reporter gene	2087 nM
CC1(C)CC=C(c2cn(-c3nccc(C(=O)NC4CCC(N5CC6CCC(C5)O6)CC4)n3)c3ccc(F)c([C@H](OC(C)(C)C)C(=O)O)c23)CC1	T66I	MT-4	NL4-3	luminescence	0.0051 µM
Cc1ncc(-c2cnc(OCC3CC=CC3)c(F)c2)c(N2CCC(C)(C)CC2)c1[C@H](OC(C)(C)C)C(=O)O		MT-2	NL4-3	luminescence	0.0037 µM
CC(C)C1=C2[C@H]3CC[C@@H]4[C@@]5(C)CC[C@H](OC(=O)[C@H]6C[C@@H](C(=O)O)C6(C)C)C(C)(C)[C@@H]5CC[C@@]4(C)[C@]3(C)CC[C@@]2(CCNC(=O)c2ccc(Cl)cc2)CC1=O		MT-2	92HT599	p24 / ELISA	<1 µM
CC(C)=CCOc1ccc(-c2cnc(C)c([C@H](OC(C)(C)C)C(=O)O)c2N2CCC(C)(C)CC2)nc1		MT-2	NL4-3	luminescence	0.0009 µM
Cc1cc2[nH]cnc2cc1NC(=O)COc1ccc(Cl)cc1C(=O)c1cc(F)cc(C(F)(F)F)c1	RT-K103N Y181C	HeLa + HELA CD4+	HXB2 (RT-K103N Y181C) Recombinant	β-galactosidase	0.011–0.1 µM
CN1c2ccccc2C2C1C=C(C#N)C(=O)N2c1ccc([N+](=O)[O-])cc1		PBMC	B-92US026	GFP / fluorescence	1.42 µM
Cc1cc(C#N)cc(C(=O)c2cc(Cl)ccc2OCC(=O)Nc2cnc(S(N)(=O)=O)cc2C)c1	RT-V106I	HeLa + HELA CD4+	HXB2	β-galactosidase	<0.01 µM
COc1ccc(OCCNc2ccc(-c3cnc(C)c([C@H](OC(C)(C)C)C(=O)O)c3N3CCC(C)(C)CC3)nc2)cc1		MT-2	NL4-3	luminescence	0.0016 µM
CC(C)C1=C2[C@H]3CC[C@@H]4[C@@]5(C)CC[C@H](OC(=O)[C@H]6C[C@@H](C(=O)O)C6(C)C)C(C)(C)[C@@H]5CC[C@@]4(C)[C@]3(C)CC[C@@]2([C@@H](O)CNCc2ccc(Cl)cc2OC2CCOC2)CC1=O		MT-2	92HT599	p24 / ELISA	<1 µM
Cc1cc(OCCCS(N)(=O)=O)ccc1NC(=O)COc1ccc(Cl)cc1C(=O)c1cc(F)cc(C(F)(F)F)c1	RT-V106A	HeLa + HELA CD4+	HXB2	β-galactosidase	0.011–0.1 µM